Source: PubChem BioAssay AID624099 (ICCB-Longwood, 2012)
This is a random part of about 21,000 reagents tested. Of all reagents, 497 (2.4%) were called active. 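Higher z means weaker E2 silencing; only reporter increases were scored, and knock-downs that hurt cell survival may mask genuine repressor factors.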

Test: 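Host factors E2 relies on to silence an HPV18 LCR reporter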 (primary screen)
Cell system: human C33A cervical carcinoma cells (HPV-negative) stably expressing BPV1 E2 and an HPV18 LCR luciferase reporter
Reagent: siRNA pool against human genes, 40 nM
Timing: 72 h
Read-out: 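Per-well luciferase luminescence, z-scored on each plate against the plate mean and SD with control wells left out, then averaged across three replicate plates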
Direction: mean z-score and z-score: higher = stronger reporter signal, weaker E2 silencing
Call rule: 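Mean z ≥ 2 together with z ≥ 2 in two or more of the three replicates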

{"target": "ASTL (GeneID 431705)", "mean z-score": 0.68, "z-score, replicate A": 0.67, "z-score, replicate B": 0.34, "z-score, replicate C": 1.02, "Outcome": "inactive"}
{"target": "ARHGAP20 (GeneID 57569)", "mean z-score": -0.03, "z-score, replicate A": 0.45, "z-score, replicate B": -0.05, "z-score, replicate C": -0.47, "Outcome": "inactive"}
{"target": "PCDHB14 (GeneID 56122)", "mean z-score": 0.74, "z-score, replicate A": 0.71, "z-score, replicate B": 0.97, "z-score, replicate C": 0.55, "Outcome": "inactive"}
{"target": "RINL (GeneID 126432)", "mean z-score": 0.17, "z-score, replicate A": -0.18, "z-score, replicate B": 0.13, "z-score, replicate C": 0.54, "Outcome": "inactive"}
{"target": "TRPC1 (GeneID 7220)", "mean z-score": -0.05, "z-score, replicate A": -0.05, "z-score, replicate B": 0.25, "z-score, replicate C": -0.35, "Outcome": "inactive"}
{"target": "DSCR4 (GeneID 10281)", "mean z-score": 2.79, "z-score, replicate A": 2.67, "z-score, replicate B": 2.68, "z-score, replicate C": 3.02, "Outcome": "active"}
{"target": "EXOC3L4 (GeneID 91828)", "mean z-score": 0.95, "z-score, replicate A": 0.85, "z-score, replicate B": 0.8, "z-score, replicate C": 1.19, "Outcome": "inactive"}
{"target": "TAF1B (GeneID 9014)", "mean z-score": 0.26, "z-score, replicate A": 0.08, "z-score, replicate B": 0.42, "z-score, replicate C": 0.28, "Outcome": "inactive"}
{"target": "CPNE4 (GeneID 131034)", "mean z-score": -0.63, "z-score, replicate A": -1.02, "z-score, replicate B": -0.53, "z-score, replicate C": -0.34, "Outcome": "inactive"}
{"target": "LOC387946 (retired record) (GeneID 387946)", "mean z-score": 0.18, "z-score, replicate A": 0.16, "z-score, replicate B": 0.43, "z-score, replicate C": -0.04, "Outcome": "inactive"}
{"target": "PDZD4 (GeneID 57595)", "mean z-score": -0.11, "z-score, replicate A": -0.28, "z-score, replicate B": 0.22, "z-score, replicate C": -0.28, "Outcome": "inactive"}
{"target": "ATP13A3-DT (GeneID 401106)", "mean z-score": -0.78, "z-score, replicate A": -0.54, "z-score, replicate B": -0.85, "z-score, replicate C": -0.96, "Outcome": "inactive"}
{"target": "ASTE1 (GeneID 28990)", "mean z-score": 0.18, "z-score, replicate A": -0.35, "z-score, replicate B": 1.05, "z-score, replicate C": -0.16, "Outcome": "inactive"}
{"target": "RXRA (GeneID 6256)", "mean z-score": 0.5, "z-score, replicate A": 0.61, "z-score, replicate B": 0.38, "z-score, replicate C": 0.52, "Outcome": "inactive"}
{"target": "CIBAR2 (GeneID 339145)", "mean z-score": 0.53, "z-score, replicate A": 0.51, "z-score, replicate B": 0.57, "z-score, replicate C": 0.52, "Outcome": "inactive"}
{"target": "EXOC5 (GeneID 10640)", "mean z-score": 0.76, "z-score, replicate A": 0.73, "z-score, replicate B": 1.01, "z-score, replicate C": 0.54, "Outcome": "inactive"}
{"target": "RPL14P1 (GeneID 144581)", "mean z-score": -5.97, "z-score, replicate A": -6.2, "z-score, replicate B": -6.21, "z-score, replicate C": -5.5, "Outcome": "inactive"}
{"target": "BTNL8 (GeneID 79908)", "mean z-score": -1.18, "z-score, replicate A": -1.15, "z-score, replicate B": -1.32, "z-score, replicate C": -1.08, "Outcome": "inactive"}
{"target": "LOC400577 (retired record) (GeneID 400577)", "mean z-score": 0.4, "z-score, replicate A": 0.55, "z-score, replicate B": 0.34, "z-score, replicate C": 0.32, "Outcome": "inactive"}
{"target": "SYT14 (GeneID 255928)", "mean z-score": -0.27, "z-score, replicate A": -0.39, "z-score, replicate B": -0.22, "z-score, replicate C": -0.2, "Outcome": "inactive"}
{"target": "TTYH1 (GeneID 57348)", "mean z-score": 0.29, "z-score, replicate A": 0.29, "z-score, replicate B": 0.55, "z-score, replicate C": 0.03, "Outcome": "inactive"}
{"target": "MT1X (GeneID 4501)", "mean z-score": 0.27, "z-score, replicate A": 0.1, "z-score, replicate B": 0.45, "z-score, replicate C": 0.25, "Outcome": "inactive"}
{"target": "ZNF671 (GeneID 79891)", "mean z-score": 1.64, "z-score, replicate A": 2.35, "z-score, replicate B": 1.84, "z-score, replicate C": 0.73, "Outcome": "inactive"}
{"target": "PRPS1 (GeneID 5631)", "mean z-score": 1.58, "z-score, replicate A": 1.52, "z-score, replicate B": 1.35, "z-score, replicate C": 1.88, "Outcome": "inactive"}
{"target": "SKA2 (GeneID 348235)", "mean z-score": 0.97, "z-score, replicate A": 0.71, "z-score, replicate B": 1.16, "z-score, replicate C": 1.03, "Outcome": "inactive"}
{"target": "FIGNL2 (GeneID 401720)", "mean z-score": -0.97, "z-score, replicate A": -1.11, "z-score, replicate B": -0.97, "z-score, replicate C": -0.85, "Outcome": "inactive"}
{"target": "HS3ST5 (GeneID 222537)", "mean z-score": -0.71, "z-score, replicate A": -0.61, "z-score, replicate B": -0.81, "z-score, replicate C": -0.57, "Outcome": "inactive"}

Reprinted from above, 4 entries:
{"target": "DSCR4 (GeneID 10281)", "mean z-score": 2.79, "z-score, replicate A": 2.67, "z-score, replicate B": 2.68, "z-score, replicate C": 3.02, "Outcome": "active"}
{"target": "EXOC3L4 (GeneID 91828)", "mean z-score": 0.95, "z-score, replicate A": 0.85, "z-score, replicate B": 0.8, "z-score, replicate C": 1.19, "Outcome": "inactive"}
{"target": "TAF1B (GeneID 9014)", "mean z-score": 0.26, "z-score, replicate A": 0.08, "z-score, replicate B": 0.42, "z-score, replicate C": 0.28, "Outcome": "inactive"}
{"target": "CPNE4 (GeneID 131034)", "mean z-score": -0.63, "z-score, replicate A": -1.02, "z-score, replicate B": -0.53, "z-score, replicate C": -0.34, "Outcome": "inactive"}
